Laboratory results: publication PMC10499915 (Scientific Reports, 2023)

Test: Circular dichroism, helicity
Assay type: physicochemical
Details: calculated from the [θ]222 value in 100 mM SDS solution; CD, 3 × 10^−4 M peptide
Procedure: The secondary structure of the peptides was investigated by circular dichroism (CD) spectroscopy in various environments, including 0.2 mM potassium-phosphate buffer (aqueous solution, pH 7), 100 mM sodium dodecyl sulphate (SDS), and 2,2,2-trifluoroethanol (TFE). As these peptides are active on membranes, we chose SDS, as SDS micelles represent a model mimicking the prokaryotic cell membrane. TFE, on the other hand, is a solvent that induces the formation of helical structures.
The electronic CD curves in the far-UV region (below 260 nm) were obtained on a Jasco (Tokyo, Japan) model J-1500 spectropolarimeter with a fused quartz cell of 0.02 cm pathlength (Hellma, Mühlheim, Germany). The values are expressed in terms of [θ]R, the molar ellipticity per residue (deg × cm^2/dmol). Spectra were recorded at room temperature in water, in spectrograde TFE (99.9% Acros Organics, Geel, Belgium) and 100 mM SDS solution at 3 × 10^−4 M peptide concentration. The final molar peptide-to-lipid ratio is 1:300.

Row | Molecule | Helicity (%)
1 | CCCCCCCC(=O)N[C@@H](CCCCN)C(=O)N[C@@H](CCCNC(=N)N)C(=O)N[C@@H](CC(C)C)C(=O)N[C@@H](CCCCN)C(=O)N[C@@H](CCCCN)C(=O)N[C@H](C(=O)NCC(=O)N[C@@H](CCCCN)C(=O)N[C@H](C(=O)N[C@@H](CC(C)C)C(=O)N[C@@H](CCCCN)C(=O)N[C@@H](Cc1c[nH]c2ccccc12)C(=O)N[C@H](C(=O)N[C@@H](C)C(=O)N[C@@H](CCCCN)C(=O)N[C@H](C(=O)N[C@H](C(=O)NCC(=O)N[C@@H](CO)C(=O)N[C@H](C(N)=O)[C@@H](C)CC)C(C)C)[C@@H](C)CC)[C@@H](C)CC)C(C)C)[C@@H](C)CC [c] (Octanoyl-KRLKKIGKVLKWIAKIVGSI-NH2) | 71%
2 | CCCCCCCCCCCC(=O)N[C@@H](CCCCN)C(=O)N[C@@H](CCCNC(=N)N)C(=O)N[C@@H](CC(C)C)C(=O)N[C@@H](CCCCN)C(=O)N[C@@H](CCCCN)C(=O)N[C@H](C(=O)NCC(=O)N[C@@H](CCCCN)C(=O)N[C@H](C(=O)N[C@@H](CC(C)C)C(=O)N[C@@H](CCCCN)C(=O)N[C@@H](Cc1c[nH]c2ccccc12)C(=O)N[C@H](C(=O)N[C@@H](C)C(=O)N[C@@H](CCCCN)C(=O)N[C@H](C(=O)N[C@H](C(=O)NCC(=O)N[C@@H](CO)C(=O)N[C@H](C(N)=O)[C@@H](C)CC)C(C)C)[C@@H](C)CC)[C@@H](C)CC)C(C)C)[C@@H](C)CC [d] (Lauroyl-KRLKKIGKVLKWIAKIVGSI-NH2) | 47%
3 | Ac-KRLKKIGKVLKWIAKIVGSI-NH2 [b] | 94%
4 | Ac-KRLKKIGKVLKWIPPIVGSI-NH2 [a] | 18%

Peptide text beside a SMILES is read from it. * marks the point of attachment. Lauroyl = CCCCCCCCCCCC(=O)*; Octanoyl = CCCCCCCC(=O)*
